Compound potency records, mixed from different reports. Data source: NIAID ChemDB in PubChem.

Shared fields: tests in culture; organism: Mycobacterium tuberculosis

Blank or dashed fields: not listed here. ECn: concentration that inhibits the pathogen or its effect by n%. Lines come from different laboratories, so protocols vary. Two numbers with a dash give a range or band. A number after MIC or MFC names an inhibition level or a share of isolates. Percent inhibition refers to the dose given; in toxicity tests it is the harm to the cells. MIC bound comes from a single tested concentration.

smiles	strain or isolate	method	setting	endpoint	dose	value
O=C1CSc2nnc(-c3ccccc3Cl)n2N1C(=O)c1ccncc1	-	-	-	MIC	-	100 µg/mL
CC(=O)O[C@@H]1OC=C2CC[C@H]3[C@]4(C)CC[C@H]5C(C)(C)CCC[C@]5(C)[C@H]4C[C@@H](O)[C@]3(C)[C@H]21	H37Ra	-	-	MIC	-	3 µM
CNc1nnc(-c2ccc(N=Cc3cccc([N+](=O)[O-])c3)cc2)s1	H37Rv	-	-	inhibition	6.25 µg/mL	0%
CC1OC(=O)c2cc(N)ccc21	H37Rv	-	-	MIC	-	30 µg/mL
C=CC(C)(C)c1c(OC(C)=O)cc2oc3c(OC(C)=O)c(OC(C)=O)cc(CC=C(C)C)c3c(=O)c2c1O	H37Rv	BACTEC	-	inhibition	12.5 µg/mL	7%
NC(=O)CNS(=O)(=O)c1ccc(-c2nnn(Cc3ccc(Cl)cn3)n2)cc1	H37Rv	resazurin	-	MIC	-	<0.1 µM
C=CC/C(=N\OS(=O)(=O)O)S[C@@H]1O[C@H](CO)[C@@H](O)[C@H](O)[C@H]1O	H37Rv	resazurin	-	MIC bound	-	>6.25 µg/mL
O=C(NNC(=O)c1ccncc1)Nc1ccc(F)cc1Br	My 331/88	broth dilution	21 d	MIC100	-	16 µM
COc1cc(-c2ccccc2)nc2ccccc12	H37Rv	-	-	MIC	-	16 µg/mL
COc1ccc(Cn2nnc(-c3ccc(S(=O)(=O)NCC(N)=O)cc3)n2)cc1	H37Rv	resazurin	-	MIC	-	<0.1 µM
C[C@@H]1CN(c2c(F)c(N)c3c(=O)c(C(=O)O)cn(C4CC4)c3c2F)C[C@H](C)N1	H37Rv	-	-	MIC	-	0.25 µg/mL
O=C(NNC(=O)c1ccncc1)Nc1ccc(Cl)c(Cl)c1	My 331/88	broth dilution	21 d	MIC100	-	125 µM
O=[N+]([O-])c1ccc(C=Nc2ccc(-c3nnc(NCc4ccccc4)s3)cc2)o1	H37Rv	-	-	inhibition	6.25 µg/mL	0%
CCn1cc(C(=O)O)c(=O)c2cnc(N3CCNCC3)nc21	H37Rv	-	-	MIC	-	128 µg/mL
Cc1nccc2c1[nH]c1cc(OS(C)(=O)=O)ccc12	H37Rv	-	-	EC50	-	>6.25 µg/mL
CC(C)C[C@@H]1NC(=O)[C@H](Cc2c[nH]c3ccccc23)NC(=O)[C@H](CCCCN)NC(=O)[C@H](CC(N)=O)NC(=O)[C@H](C(C)C)NC(=O)[C@@H](CC(C)C)NC1=O	HN878	turbidity	-	MIC90	-	>30 µM
CCCCc1ccc(CO[C@@H]2COc3nc([N+](=O)[O-])cn3C2)cc1	H37Rv	-	-	MIC	-	0.015 µg/mL
Nc1c(O)c(S(=O)(=O)O)c(O)c2c1C(=O)c1ccccc1C2=O	H37Rv	BACTEC	-	inhibition	12.5 µg/mL	4%
CC(C)C[C@@H]1NC(=O)[C@H](Cc2c[nH]c3ccccc23)NC(=O)[C@@H](CCCCN)NC(=O)[C@H](CC(N)=O)NC(=O)[C@H](C(C)C)NC(=O)[C@@H](CC(C)C)NC1=O	HN353	turbidity	-	EC50	-	0.32 µM
COc1ccc(NC(=O)NNC(=O)c2ccncc2)cc1	My 331/88	broth dilution	21 d	MIC100	-	62.5 µM
C=C[C@@H](O)C#CC#C[C@@H](O)/C=C\CCCCCCC	H37Ra	resazurin	-	MIC90	-	6.25 µg/mL
CC(=O)Oc1ccc(/C=C/C(=O)O[C@H]2CC[C@@]3(C)C(CC[C@]4(C)C3CC=C3C5CC(C)(C)CC[C@]5(C(=O)O)CC[C@]34C)C2(C)C)cc1	H37Ra	resazurin	-	MIC	-	12.5 µg/mL
COc1ccc2c(ccc3nc(C)[nH]c(=O)c32)c1	H37Rv	BACTEC	-	MIC bound	-	>12.5 µg/mL
CC1(C)C=Cc2c(ccc3c2O[C@H](c2ccc(O)cc2)CC3)O1	H37Rv	-	-	MIC	-	50 µg/mL
Cc1cc(-c2ccccc2)oc(=O)c1NC(=O)c1cnccn1	H37Rv	BACTEC	-	inhibition	6.25 µg/mL	37%
CC(C)C[C@@H]1NC(=O)[C@H](Cc2c[nH]c3ccccc23)NC(=O)[C@@H](CCCN)NC(=O)[C@H](CC(N)=O)NC(=O)[C@H](C(C)C)NC(=O)[C@@H](CC(C)C)NC1=O	H37Ra	turbidity	-	EC50	-	0.37 µM
COc1c(OC)c2occc2c2oc(=O)ccc12	H37Ra	resazurin	-	MIC90	-	200 µg/mL
CC1(C)CC[C@]2(C(=O)O)CC[C@]3(C)C(=CCC4[C@@]5(C)CC[C@H](OC(=O)/C=C/c6ccc(Cl)cc6)C(C)(C)C5CC[C@]43C)C2C1	H37Ra	resazurin	-	MIC	-	>200 µg/mL
CCn1cc(C(=O)O)c(=O)c2cc(F)c(N3CCNCC3)nc21	H37Rv	-	-	MIC	-	8 µg/mL
CC1OC(=O)c2cc(O)ccc21	H37Rv	-	-	MIC	-	300 µg/mL
CCC(=O)Oc1ccc2c(c1)[nH]c1c(C)nccc12	H37Rv	-	-	EC50	-	>6.25 µg/mL
COc1cc(/C=C/C(=O)O[C@H]2CC[C@@]3(C)C(CC[C@]4(C)C3CC=C3C5CC(C)(C)CC[C@]5(C(=O)O)CC[C@]34C)C2(C)C)ccc1OC(C)=O	H37Ra	resazurin	-	MIC	-	50 µg/mL
CCCCc1ccc(NC(=O)NNC(=O)c2ccncc2)cc1	My 331/88	broth dilution	14 d	MIC100	-	4 µM
CC1OC(=O)c2c(O)cccc21	H2	-	-	MIC	-	300 µg/mL
COc1cc2ccc(=O)oc2c2ccoc12	H37Ra	resazurin	-	MIC90	-	400 µg/mL
NNC(=O)/C=C/c1ccc(O)cc1	BCG	-	-	MIC	-	5 µg/mL
COc1cc(/C=C/C(=O)O[C@H]2CC[C@@]3(C)C(CC[C@]4(C)C3CC=C3C5[C@@H](C)[C@H](C)CC[C@]5(C(=O)O)CC[C@]34C)C2(C)C)ccc1OC(C)=O	H37Ra	resazurin	-	MIC	-	3.13 µg/mL
COc1ccc(CSC(=S)Nc2ccc(C)c(Cl)c2)cc1	H37Rv	BACTEC	-	inhibition	12.5 µg/mL	66%
CNc1nnc(-c2ccc(N=Cc3ccc([N+](=O)[O-])o3)cc2)s1	H37Rv	-	-	inhibition	6.25 µg/mL	0%
O=C(c1ccncc1)N1C(c2ccccc2)=C(c2ccccc2)Sc2nnc(Cc3ccccc3)n21	-	-	-	MIC	-	100 µg/mL
COc1cc2c(cc1C1COc3cc4occc4cc3C1=O)OCO2	H37Rv	BACTEC	-	MIC	-	≥12.5 µg/mL
CC1OC(=O)c2ccc(O)cc21	H37Rv	-	-	MIC	-	1000 µg/mL
CC(C)(C)c1ccc(CO[C@@H]2COc3nc([N+](=O)[O-])cn3C2)cc1	W (MDR)	-	-	MIC	-	0.03 µg/mL
CCn1cc(C(=O)O)c(=O)c2cc3c(cc21)OCO3	H37Rv	-	-	MIC	-	32 µg/mL
CC(C)OC(=S)Nc1ccc(Cl)c(COC(C)(C)C)c1	H37Rv	BACTEC	-	inhibition	12.5 µg/mL	96%
Nc1ccc(OCc2nnc3n2N(C(=O)c2ccncc2)C(c2ccccc2)=C(c2ccccc2)S3)cc1	-	-	-	MIC	-	100 µg/mL
CCCCCCc1ccc(NC(=O)NNC(=O)c2ccncc2)cc1	My 331/88	broth dilution	21 d	MIC100	-	62.5 µM
Nc1ccc(-c2nnc3n2N(C(=O)c2ccncc2)C(=O)CS3)cc1	-	-	-	MIC	-	100 µg/mL
NNC(=O)c1ccncc1	My 331/88	broth dilution	21 d	MIC100	-	0.5 µM
COc1ccc(/C=C/Br)cc1	BCG	-	-	MIC	-	>100 µg/mL
COC(=O)c1c2oc3c(C(=O)OC)cccc3nc-2cc(N)c1=O	H37Rv	BACTEC	-	inhibition	12.5 µg/mL	6%
CO[C@H]1/C=C/O[C@@]2(C)Oc3c(C)c(O)c4c(=O)c(c5oc6cc(N7CCN(CC(C)C)CC7)cc(=O)c6nc5c4c3=C2O)NC(=O)/C(C)=C\C=C\[C@H](C)[C@H](O)[C@@H](C)[C@@H](O)[C@@H](C)[C@H](OC(C)=O)[C@@H]1C	Kurono	-	-	MIC	-	0.004 µg/mL
CO[C@H]1/C=C/O[C@@]2(C)Oc3c(C)c(O)c4c(=O)c(c5oc6cc(N7CCN(CC(C)C)CC7)cc(=O)c6nc5c4c3=C2O)NC(=O)/C(C)=C\C=C\[C@H](C)[C@H](O)[C@@H](C)[C@@H](O)[C@@H](C)[C@H](OC(C)=O)[C@@H]1C	H37Rv	-	-	MBC	-	0.15–0.3 µg/mL
Oc1ccccc1C=Nc1ccc(-c2nnc(Nc3ccccc3)s2)cc1	H37Rv	-	-	inhibition	6.25 µg/mL	51%
O=C1C2OC2C(O)(CCN(Cc2ccc3c(c2)OCO3)C(=O)C(F)(F)F)C2OC12	H37Rv	resazurin	-	inhibition	6.25 µg/mL	7%
CCCC(=O)Oc1ccc2c(c1)[nH]c1c(C)nccc12	H37Rv	-	-	EC50	-	>6.25 µg/mL
C=C(C)[C@@H]1CC[C@]2(C(=O)O)CC[C@]3(C)C(CCC4[C@@]5(C)CC[C@H](OC(=O)/C=C/c6ccc(Cl)cc6)C(C)(C)C5CC[C@]43C)C12	H37Ra	resazurin	-	MIC	-	>200 µg/mL
O=C1C(=O)N(c2cccc(C(F)(F)F)c2)C(=S)N1c1ccccc1	H37Rv	BACTEC	-	inhibition	12.5 µg/mL	15%
O=S(=O)(NCCO)c1ccc(-c2nnn(Cc3ccc(F)cn3)n2)cc1Cl	H37Rv	resazurin	-	MIC	-	<0.1 µM
CC(C)C[C@@H]1NC(=O)[C@H](Cc2c[nH]c3ccccc23)NC(=O)[C@@H](CCCN=C(N)N)NC(=O)[C@H](CC(N)=O)NC(=O)[C@H](C(C)C)NC(=O)[C@@H](CC(C)C)NC1=O	H37Rv	turbidity	-	EC50	-	1.03 µM
Cc1nccc2c1[nH]c1cc(OC(=O)/C=C/c3ccccc3)ccc12	H37Rv	-	-	inhibition	6.25 µg/mL	26%
CCOC(=O)C1=NN(c2ccccc2)C(=O)C1N=Nc1ccc(NS(=O)(=O)c2nccs2)cc1	H37Rv	BACTEC	-	inhibition	12.8 µg/mL	78%
CCCCCCCc1ccc(NC(=O)NNC(=O)c2ccncc2)cc1	My 331/88	broth dilution	14 d	MIC100	-	16 µM
O=c1c(-c2nn[nH]n2)cnc2sc3cc(Cl)ccc3n12	H37Rv	resazurin	-	inhibition	6.25 µg/mL	9%
[2H]C([2H])([2H])OC(=O)N/C=C/CCCc1cc(O)c(C(=O)/C(C)=C/c2cnc(Oc3ccc(F)cc3)s2)c(=O)o1	H37Rv	fluorescence	-	MIC	-	0.4 µg/mL
CC1(C)SC(C)(C)N2C(=O)[C@@H]3N(C(=O)[C@H]21)C(C)(C)SC3(C)C	H37Rv	resazurin	-	inhibition	6.25 µg/mL	-38%
CNc1nnc(-c2ccc(N=Cc3ccccc3O)cc2)s1	H37Rv	-	-	inhibition	6.25 µg/mL	13%
N=C1N=Nc2nc(C(C(=O)c3cccc([N+](=O)[O-])c3Cl)c3nc4n(c3O)C(=N)N=N4)c(O)n21	H37Rv	resazurin	-	inhibition	6.25 µg/mL	13%
NC(=O)CNS(=O)(=O)c1ccc(-c2nnn(Cc3ccc(F)c(F)c3)n2)cc1	H37Rv	resazurin	-	MIC	-	<0.1 µM
C(=N\Nc1ccccn1)/NN/C=N/Nc1ccccn1	H37Rv	BACTEC	-	MIC bound	-	>12.5 µg/mL
NNC(=O)/C=C/c1ccccc1Cl	BCG	-	-	MIC	-	20 µg/mL
CCC1C[N+]2=C(c3cc(OC)c(OC)cc3CC2)c2c1cc1n2CCc2cc(OC)c(OC)cc2-1	H37Rv	BACTEC	-	inhibition	128 µg/mL	99%
CC1OC(=O)c2cc([N+](=O)[O-])ccc21	H2	-	-	MIC	-	1000 µg/mL
CC(C)c1cccc(C(C)C)c1N1C(=O)C(=O)C(c2nc3ccccc3s2)C(=O)C1=O	H37Rv	resazurin	-	inhibition	6.25 µg/mL	4%
O=C(c1ccncc1)N1C(c2ccccc2)=C(c2ccccc2)Sc2nnc(COc3cccc4ccccc34)n21	-	-	-	MIC	-	100 µg/mL
CO[C@@]12[C@H](COC(N)=O)C3=C(C(=O)C(C)=C(NCC4CCCO4)C3=O)N1C[C@@H]1N[C@@H]12	H37Rv	BACTEC	-	MIC	-	1.6 µg/mL
C=C[C@]1(C)C=C2c3c[nH]c4cccc(c34)C(C)(C)[C@H]2C[C@H]1O	-	-	-	MIC	-	>100 µM
COC(=O)CCc1cc(=O)oc2c(I)c(O)cc(O)c12	H37Rv	BACTEC	-	inhibition	12.5 µg/mL	0%
O=c1ccc2ccc3occc3c2o1	H37Ra	resazurin	-	EC50	-	65.1 µg/mL

8 of the rows above, restated:

smiles,strain or isolate,method,setting,endpoint,dose,value
CCn1cc(C(=O)O)c(=O)c2cc3c(cc21)OCO3,H37Rv,-,-,MIC,-,32 µg/mL
Cc1cc(-c2ccccc2)oc(=O)c1NC(=O)c1cnccn1,H37Rv,BACTEC,-,inhibition,6.25 µg/mL,37%
CCCCCCCc1ccc(NC(=O)NNC(=O)c2ccncc2)cc1,My 331/88,broth dilution,14 d,MIC100,-,16 µM
O=c1c(-c2nn[nH]n2)cnc2sc3cc(Cl)ccc3n12,H37Rv,resazurin,-,inhibition,6.25 µg/mL,9%
Nc1ccc(OCc2nnc3n2N(C(=O)c2ccncc2)C(c2ccccc2)=C(c2ccccc2)S3)cc1,-,-,-,MIC,-,100 µg/mL
NNC(=O)/C=C/c1ccccc1Cl,BCG,-,-,MIC,-,20 µg/mL
CC(C)C[C@@H]1NC(=O)[C@H](Cc2c[nH]c3ccccc23)NC(=O)[C@@H](CCCN=C(N)N)NC(=O)[C@H](CC(N)=O)NC(=O)[C@H](C(C)C)NC(=O)[C@@H](CC(C)C)NC1=O,H37Rv,turbidity,-,EC50,-,1.03 µM
CCCCc1ccc(CO[C@@H]2COc3nc([N+](=O)[O-])cn3C2)cc1,H37Rv,-,-,MIC,-,0.015 µg/mL